Assay: Activity (international units) of the antibiotics used

Question: Which activity does the source give for `NC[C@@H]1O[C@H](O[C@H]2[C@@H](O)[C@H](O[C@@H]3[C@@H](O)[C@H](N)C[C@H](N)[C@H]3O[C@H]3O[C@H](CN)[C@@H](O)[C@H](O)[C@H]3N)O[C@@H]2CO)[C@H](N)[C@@H](O)[C@@H]1O.O=S(=O)(O)O` [Neomycin sulphate] here?
Answer: Its activity is 699 iU/ml.
